A mixed list of measured activities; the numbers were collected in NIAID ChemDB.

Shared fields: whole-cell or culture tests; organism: Mycobacterium tuberculosis

MIC bound comes from a single tested concentration. MIC50, MIC90 and the like: level of inhibition, or share of isolates inhibited. Percent inhibition refers to the dose given; in toxicity tests it is the harm to the cells. An empty or dashed field is not shown. Conditions beyond the fields shown may differ between rows. ECn is the concentration giving n% inhibition of infection, replication or growth.

smiles	method	tested at	measure	strain or isolate	mutations	value
Cc1cccc(C)c1N1C(=O)C2Nc3ccccc3SC2C1=O	BACTEC		MIC	H37Rv		≥12.8 µg/mL
O=C(/C=C/c1cccc(I)c1)c1ccccc1O			MIC	H37Rv		31.5 µg/mL
CO[C@H]1/C=C/O[C@@]2(C)Oc3c(C)c(O)c4c(O)c(c(/C=N/N5CCN(C)CC5)c(O)c4c3C2=O)NC(=O)/C(C)=C\C=C\[C@H](C)[C@H](O)[C@@H](C)[C@@H](O)[C@@H](C)[C@H](OC(C)=O)[C@@H]1C			MIC	R506		100 µM
O=c1cc(-c2cccc(I)c2)oc2ccccc12		12.5 µg/mL	inhibition	H37Rv		20%
NC(=O)c1cnccn1	agar		EC50	592 strains		<25 µg/mL
O=c1oc2ccc(Cl)cc2c(=O)n1-c1ccc([N+](=O)[O-])cc1			MIC	CNCTC MY331/88		8 µM
Cn1cc(NC(=O)Nc2cc(C(=O)Nc3cc(C(=O)Nc4ccc(S(=O)(=O)O)c5cc(S(=O)(=O)O)cc(S(=O)(=O)O)c45)n(C)c3)n(C)c2)cc1C(=O)Nc1cc(C(=O)Nc2ccc(S(=O)(=O)O)c3cc(S(=O)(=O)O)cc(S(=O)(=O)O)c23)n(C)c1	BACTEC	12.5 µg/mL	inhibition	H37Rv		0%
COc1cc(OC)c2c(=O)cc(-c3cc(OC)c(OC)c(OC)c3)oc2c1		12.5 µg/mL	inhibition	H37Rv		0%
CN(C)CCCNC(=O)Nc1c(C#N)[n+]([O-])c2cc(Cl)c(Cl)cc2[n+]1[O-]			MIC	H37Rv		<12.5 µg/mL
O=c1cc(-c2ccccc2)oc2ccc(I)cc12			MIC	H37Rv		>12.5 µg/mL
O=C1/C(=C\c2ccc([N+](=O)[O-])o2)Oc2cc(O)ccc21	BACTEC		MIC bound	H37Rv		>12.5 µg/mL
COc1cc(O)c2c(=O)c3cc(O)c(O)c(OC)c3oc2c1			MIC			40 µg/mL
CC(=O)Nc1ccc(S(=O)(=O)CC(=O)CS(=O)(=O)c2ccc(NC(C)=O)cc2)cc1	resazurin	6.25 µg/mL	inhibition	H37Rv		4%
Cc1ccc2nc(C(=O)N/N=C/c3ccc(Oc4ccc(Cl)cc4)cc3)[nH]c2c1	resazurin		MIC	H37Rv		3.125 µg/mL
Cn1cnnc1SCc1ccc(C#N)cc1			MIC	My 331/88		1000 µM
Cc1ccc2c(=O)n(-c3ccc(N(C)C)cc3)c(=O)oc2c1			MIC	CNCTC MY331/88		31 µM
Cc1onc(-c2c(Cl)cccc2Cl)c1C(=O)SC1=NC(C)N2C(SC(=O)c3c(-c4c(Cl)cccc4Cl)noc3C)=NC(C)N12	resazurin		MIC bound	H37Rv		>6.25 µg/mL
O=C(O)c1c2n(c3cc(F)c(N4CCN(Cc5ccc6c(c5)OCO6)CC4)cc3c1=O)CS2	agar		MIC	H37Rv		1.66 µM
Nc1cccc(Nc2cc(S(=O)(=O)O)c(N)c3c2C(=O)c2ccccc2C3=O)c1	BACTEC	12.5 µg/mL	inhibition	H37Rv		3%
Cn1cnnc1SCc1cccc(Br)c1			MIC	My 331/88		500 µM
Cc1cc2c(cc1C)[n+]([O-])c(NCCCN(C)C)c(C#N)[n+]2[O-]		6.25 µg/mL	inhibition	H37Rv		81%
Cn1cnnc1SCc1ccc(C(N)=S)cc1			MIC	My 331/88		250 µM
Cc1ccc2c(=O)n(-c3ccc(Cl)cc3)c(=O)oc2c1			MIC	CNCTC MY331/88		62 µM
COc1ccc(C(=O)/C=C/c2cccc(I)c2)c(O)c1			MIC	H37Rv		>12.5 µg/mL
CC1CN(c2cc3c(=O)c(C(=O)O)c4n(c3cc2F)CS4)CC(C)O1	agar		MIC	H37Rv	MDR-TB	4.28 µM
Cc1ccc(C)c(NC(=O)CC/C(=N\NC(=O)C(=O)NN)C(C)C(=O)c2ccc(O)cc2)c1	BACTEC		MIC bound	H37Rv		>12.5 µg/mL
CN1CCN(c2c(F)cc3c(=O)c(C(=O)O)cn(CCF)c3c2F)CC1			MIC90			3.13 µg/mL
COc1cccc2c(=O)c3c(OC4OC(CO)C(O)C(O)C4O)cc(O)cc3oc12			MIC			>200 µg/mL
O=c1oc2ccc([N+](=O)[O-])cc2c(=O)n1-c1cccc(Cl)c1			MIC	CNCTC MY331/88		31 µM
CO/N=C(\C(=O)N[C@@H]1C(=O)N2C(C(=O)O)=CCS[C@H]12)c1csc(N)n1			MIC90	26 strains		>64 µg/mL
O=C(N/N=C/c1ccc(Oc2ccc(Cl)cc2Cl)cc1)c1nc2ccc([N+](=O)[O-])cc2[nH]1	resazurin		MIC	H37Rv		6.25 µg/mL
O=C(c1ccccc1)c1c(CO[N+](=O)[O-])n([O-])c2ccccc2[n+]1=O			MIC	RMP-R		12.5 µg/mL
O=C(N/N=C/c1ccc(Oc2ccc(Cl)cc2)cc1)c1nc2ccc([N+](=O)[O-])cc2[nH]1	resazurin		MIC	H37Rv		1.75 µg/mL
Cc1ccc2nc(Cl)c(C#N)nc2c1		6.25 µg/mL	inhibition	H37Rv		39%
COc1cc(O)c2c(=O)c3cc(OC4OC(CO)C(O)C(O)C4O)c(O)c(OC)c3oc2c1			MIC			100 µg/mL
CC(C)(C)NC(=O)C1c2ccccc2CCN1c1cc2c(=O)c(C(=O)O)c3n(c2cc1F)CS3	agar		MIC	H37Rv	MDR-TB	3.24 µM
CCN(CC)CCNC(=O)Nc1c(C#N)[n+]([O-])c2cc(Cl)c(Cl)cc2[n+]1[O-]			MIC	H37Rv		<12.5 µg/mL
CC1=NC(C(=O)O)C(=O)O1	BACTEC		MIC bound	H37Rv		>12.5 µg/mL
CO[C@H]1/C=C/O[C@@]2(C)Oc3c(C)c(O)c4c(=O)c(c5oc6cc(N7CCN(CC(C)C)CC7)cc(=O)c6nc5c4c3=C2O)NC(=O)/C(C)=C\C=C\[C@H](C)[C@H](O)[C@@H](C)[C@@H](O)[C@@H](C)[C@H](OC(C)=O)[C@@H]1C			MIC	11 (ethambutol-resistant)		0.0019 µg/mL
O=C1N(CCN2CCC3(CC2)OCCO3)CCN1c1cc(Cl)cc(Cl)c1.O=P(O)(O)O	BACTEC		MIC bound	H37Rv		>12.5 µg/mL
O=C(O)c1c2n(c3cc(F)c(N4CCC(O)(c5ccc(Cl)cc5)CC4)cc3c1=O)CS2	agar		MIC	H37Rv	MDR-TB	6.79 µM
Cc1ccc(CSc2ncn[nH]2)cc1			MIC	My 331/88		250 µM
C[N+](C)(C)CC(=O)N/N=C/c1ccncc1.[Cl-]	BACTEC		MIC	H37Rv		≥12.5 µg/mL
COc1ccc(-c2oc3cc(F)ccc3c(=O)c2OC(C)=O)cc1			MIC	H37Rv		>12.5 µg/mL
COc1cc(O)c2c(=O)c3c(O)cccc3oc2c1			MIC			40 µg/mL
O=C(N/N=C/c1ccc(Oc2cc(Cl)cc(Cl)c2)cc1)c1nc2ccc(Cl)cc2[nH]1	resazurin		MIC	H37Rv		12.5 µg/mL
Clc1ccc(CSc2ncn[nH]2)cc1			MIC	My 331/88		1000 µM
O=C1Cc2cc(C3CCCCC3)ccc2N1CCC1CCCCC1			MIC	H37Rv		≤20 µg/mL
O=c1cc(-c2cccc(Cl)c2)oc2ccccc12			MIC	H37Rv		>12.5 µg/mL
O=C(O)c1c2n(c3cc(F)c(N4CCN(C(=O)c5ccco5)CC4)cc3c1=O)CS2	agar		MIC	H37Rv	MDR-TB	14.55 µM
CC(C)CN1C(=O)C(=O)c2cccc(-c3ccccc3)c21			MIC	H37Rv		≤20 µg/mL
CO[C@H]1/C=C/O[C@@]2(C)Oc3c(C)c(O)c4c(=O)c(c5oc6cc(N7CCN(CC(C)C)CC7)cc(=O)c6nc5c4c3=C2O)NC(=O)/C(C)=C\C=C\[C@H](C)[C@H](O)[C@@H](C)[C@@H](O)[C@@H](C)[C@H](OC(C)=O)[C@@H]1C			MIC50	6 strains (rifampicin-resistant)		≤0.0125 µg/mL
Cc1c(OCC(F)(F)F)ccnc1CSc1nc2ccccc2[nH]1	resazurin		MIC90	HN878		1.74 µM
Cc1cc(C(=O)NNC(C)Cc2ccccc2)no1	BACTEC		MIC	H37Rv		≥12.5 µg/mL
CCCCCCCCN1C(=O)C(=O)c2cccc(-c3ccccc3)c21			MIC	H37Ra		≤20 µg/mL
COc1cc(O)c2c(=O)c3cccc(OC)c3oc2c1			MIC			>200 µg/mL
COc1ccc(Oc2ccc(/C=N/NC(=O)c3nc4ccc([N+](=O)[O-])cc4[nH]3)cc2)cc1	resazurin		MIC	H37Rv		6.25 µg/mL
Fc1cccc(Cl)c1CSc1ncn[nH]1			MIC	My 331/88		1000 µM
O=C(N/N=C/c1ccc(Cl)cc1Cl)c1ccncc1			MIC	14PI		>5 µg/mL
Cc1cc2cc(C3CCNCC3)oc2cc1C	BACTEC	12.5 µg/mL	inhibition	H37Rv		31%
O=C(N/N=C/c1ccc(Oc2cccc3ccccc23)cc1)c1nc2ccc([N+](=O)[O-])cc2[nH]1	resazurin		MIC	H37Rv		25 µg/mL
C/C=C1\CN2CCc3c([nH]c4ccccc34)C2CC1C(Cc1c[n+]2c(c3[nH]c4ccccc4c13)CC1C(C(=O)OC)=COC(C)C1C2)C(=O)OC	BACTEC	12.8 µg/mL	inhibition	H37Rv		47%
O=c1c2c(O)cc(O)cc2oc2cc(O)c(O)c(O)c12			MIC			5 µg/mL
CC(=O)c1ccc(NC(=O)/C(CC(=O)c2sc(-c3cccnc3)nc2C)=N\NC(N)=O)cc1	BACTEC		MIC bound	H37Rv		>12.5 µg/mL
CN1CCN(c2cc3c(=O)c(C(=O)O)c4n(c3cc2F)CS4)CC1c1ccccc1	agar		MIC	H37Rv		7.36 µM
O=c1cc(-c2ccccc2)oc2cc(F)ccc12		12.5 µg/mL	inhibition	H37Rv		7%
CN(C)C(=S)SCN1C(=O)c2ccccc2C1=O	BACTEC	128 µg/mL	inhibition	H37Rv		100%
N[C@@H]1CONC1=O	agar		EC50	35 strains		<30 µg/mL
NNC(=O)c1ccncc1	resazurin		MIC	XZ06008	Extensively drug-resistant	>256 µg/mL
CC[C@H](C)N1CCN(c2cc(=O)c3nc4c(oc3c2)c2c(=O)c3c(O)c(C)c5c(c34)=C(O)[C@@](C)(O/C=C/[C@H](OC)[C@@H](C)[C@@H](OC(C)=O)[C@H](C)[C@H](O)[C@H](C)[C@@H](O)[C@@H](C)/C=C/C=C(/C)C(=O)N2)O5)CC1			MIC50	6 strains (rifampicin-resistant)		≤0.0125 µg/mL
CNn1cc(C(=O)O)c(=O)c2cc(F)c(N3CCN(C)CC3)cc21			MIC90	22 strains		4 µg/mL
O=C(Nc1ccc(Nc2ccncc2)cc1)c1ccc(Nc2ccnc3ccc([N+](=O)[O-])cc23)cc1[N+](=O)[O-]	BACTEC	12.5 µg/mL	inhibition	H37Rv		99%
O=C(NN1C(=O)CS(=O)(=O)C1c1ccc(Cl)cc1Cl)c1ccncc1			MIC	H37Rv		>5 µg/mL
O=C1C(=O)N(CCN2CCN(Cc3ccccc3)CC2)c2c1cccc2C1CCCCC1			MIC	H37Ra		≤20 µg/mL
FC(F)(F)c1cccc(CSc2ncn[nH]2)c1			MIC	My 331/88		500 µM
NC(=S=O)C(F)(F)C(F)(F)C(F)(F)F	resazurin	6.25 µg/mL	inhibition			37%
Fc1ccccc1CSc1ncn[nH]1			MIC	My 331/88		250 µM
O=C(c1ccccc1)c1ccc2nc(C(=O)N/N=C/c3ccc(Oc4ccc(Cl)cc4)cc3)[nH]c2c1	resazurin		MIC	H37Rv		12.5 µg/mL
Cc1ccc(NC(=S)SCc2ccco2)cc1Cl	BACTEC	12.5 µg/mL	inhibition	H37Rv		49%
O=c1c(O)c(-c2ccccc2)oc2c(F)cccc12			MIC	H37Rv		>12.5 µg/mL
Nc1ccc(C(=O)O)c(O)c1	agar	5 µg/mL	inhibition	35 strains		91%
CO[C@@]12[C@H](COC(N)=O)C3=C(C(=O)C(C)=C(N)C3=O)N1C[C@H]1[C@@H]2N1C(=O)C1N2C(=O)[C@@H](NC(=O)Cc3ccccc3)[C@H]2SC1(C)C			MIC	PZA-R		<0.1 µg/mL
O=C(N/N=C/c1ccc(F)cc1)c1ccncc1			MIC	H37Rv		>5 µg/mL

Repeating the first 9 entries:

Cc1cccc(C)c1N1C(=O)C2Nc3ccccc3SC2C1=O ; method: BACTEC ; measure: MIC ; strain or isolate: H37Rv ; value: ≥12.8 µg/mL
O=C(/C=C/c1cccc(I)c1)c1ccccc1O ; measure: MIC ; strain or isolate: H37Rv ; value: 31.5 µg/mL
CO[C@H]1/C=C/O[C@@]2(C)Oc3c(C)c(O)c4c(O)c(c(/C=N/N5CCN(C)CC5)c(O)c4c3C2=O)NC(=O)/C(C)=C\C=C\[C@H](C)[C@H](O)[C@@H](C)[C@@H](O)[C@@H](C)[C@H](OC(C)=O)[C@@H]1C ; measure: MIC ; strain or isolate: R506 ; value: 100 µM
O=c1cc(-c2cccc(I)c2)oc2ccccc12 ; tested at: 12.5 µg/mL ; measure: inhibition ; strain or isolate: H37Rv ; value: 20%
NC(=O)c1cnccn1 ; method: agar ; measure: EC50 ; strain or isolate: 592 strains ; value: <25 µg/mL
O=c1oc2ccc(Cl)cc2c(=O)n1-c1ccc([N+](=O)[O-])cc1 ; measure: MIC ; strain or isolate: CNCTC MY331/88 ; value: 8 µM
Cn1cc(NC(=O)Nc2cc(C(=O)Nc3cc(C(=O)Nc4ccc(S(=O)(=O)O)c5cc(S(=O)(=O)O)cc(S(=O)(=O)O)c45)n(C)c3)n(C)c2)cc1C(=O)Nc1cc(C(=O)Nc2ccc(S(=O)(=O)O)c3cc(S(=O)(=O)O)cc(S(=O)(=O)O)c23)n(C)c1 ; method: BACTEC ; tested at: 12.5 µg/mL ; measure: inhibition ; strain or isolate: H37Rv ; value: 0%
COc1cc(OC)c2c(=O)cc(-c3cc(OC)c(OC)c(OC)c3)oc2c1 ; tested at: 12.5 µg/mL ; measure: inhibition ; strain or isolate: H37Rv ; value: 0%
CN(C)CCCNC(=O)Nc1c(C#N)[n+]([O-])c2cc(Cl)c(Cl)cc2[n+]1[O-] ; measure: MIC ; strain or isolate: H37Rv ; value: <12.5 µg/mL